Only a part is listed here, and it is no random draw. The source made the active and inactive calls.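 How the source made its calls: active means every replicate shows inhibition above about 80%, whatever the replicate mean (limit read from the data); inconclusive means mean inhibition reaches the set limit but some replicate falls short; inactive means the rest.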
Assay: reduced ATP signal of yeast carrying P. falciparum Hsp90 – S. cerevisiae, BacTiter-Glo luminescence, single point, set 2, antimalarial PfHsp90 inhibitor project, primary screen (AID 504621);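 further: yeast relying on Plasmodium falciparum Hsp90 in place of its own; 0% = DMSO neutral controls and 100% = 20 µM radicicol positive controls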
Conditions: S. cerevisiae expressing PfHsp90, growth, 48 h, at 9.4 µM, stronger effect = higher value, yeast lacking PDR1 and PDR3 efflux regulators

Row | Compound | inhibition
1 | Cc1cc(SC(NC(=O)c2ccccc2)C(Cl)(Cl)Cl)nc(C(C)C)n1 (centres undefined) | inactive: 7.33%
2 | CCCCOc1ccc(C(=O)NCC2(N3CCCCC3)CCCCC2)cc1OC | inactive: -4.72%
3 | CCOC(=O)Nc1ccc([As](=O)(O)O)c(O)c1 | inactive: -3.86%
4 | CC1CCNP(=O)(N(CCCl)CCCl)O1 (centres undefined) | inactive: -0.807%
5 | O=P(Nc1ccccn1)(c1cccc2ccccc12)c1cccc2ccccc12 | inactive: 2.46%
6 | Cc1cc(SC(NC=O)C(Cl)(Cl)Cl)ncn1 (centres undefined) | inactive: -19.5%
7 | O=[N+]([O-])c1ccc(Nc2ccc(Oc3ccc([N+](=O)[O-])cc3[N+](=O)[O-])cc2)c([N+](=O)[O-])c1 | inactive: 6.23%
8 | CCOC(=O)Nc1cccc([As](=O)(O)O)c1 | inactive: -15.8%
9 | O=C(Nc1ccncc1[N+](=O)[O-])c1ccc([N+](=O)[O-])cc1[N+](=O)[O-] | inactive: -1.57%
10 | O=C(COc1ccccc1)OC1CN2CCC1CC2 (centres undefined) | inactive: -7.72%
11 | COP1(=S)c2c(C)nn(CCC#N)c2N=C(c2ccc(F)cc2)N1C (centres undefined) | inactive: -29%
12 | CCC(C)N(CC(C)C)C(=S)SC(NC(C)=O)C(Cl)(Cl)Cl (centres undefined) | inactive: -127%
13 | O=C(OC1CN2CCC1CC2)c1cccc([N+](=O)[O-])c1 (centres undefined) | inactive: -8.48%
14 | CCOC(=O)c1ccc(NC(=O)C(C)(CCl)SC)cc1 (centres undefined) | inactive: -24.5%
15 | O=P1(N(CCCl)CCCl)OCCCN1CCCl (centres undefined) | inactive: -2.19%
16 | O=P1(N(CCCl)CCCl)Nc2ccccc2N1 | inactive: 6.31%
17 | COc1cc(I)ccc1[As](=O)(O)O | inactive: 5.76%
18 | COc1ccc2nc(NP(=O)(c3ccccc3)c3ccccc3)sc2c1 | inactive: -11.1%
19 | Cc1c2c(nc3ccccc13)SC(C(Cl)Cl)C2 (centres undefined) | inactive: -6.63%
20 | Cc1cc(=O)[nH]c(N[N+](=O)[O-])n1 | inactive: 3.74%
21 | O=C(OC1CN2CCC1CC2)C12CC3CC(CC(C3)C1)C2 (centres undefined) | inactive: 14.9%
22 | O=[N+]([O-])c1cc(Oc2ccc([N+](=O)[O-])cc2C(F)(F)F)cc([N+](=O)[O-])c1 | inactive: -72.3%
23 | COc1ccc(N/C(=N/P(=O)(N2CCOCC2)N2CCOCC2)N2CCOCC2)cc1 | inactive: -23%
24 | Cc1ccc(OP(=O)(Nc2ccc([N+](=O)[O-])cn2)Oc2ccc(C)cc2)cc1 | inactive: 7.12%
25 | Cc1ccc2nc3c(c(C)c2c1)CC(C(Cl)Cl)S3 (centres undefined) | inactive: -21.6%

Row | Compound | inhibition
26 | COc1cc(C(=O)NCC2(N3CCOCC3)CCCCC2)ccc1OCC(C)C | inactive: 7.27%
27 | O=[As](O)(c1ccc(O)cc1)c1ccccc1O | inactive: 11%
28 | C[As](=O)(O)c1cccc(C(=O)O)c1 | inactive: 13.9%
29 | O=[N+]([O-])c1cc([N+](=O)[O-])c(-c2ccn[nH]2)s1 | inactive: -6.65%
30 | CC(C)NC(=O)NP(=O)(Oc1ccccc1)Oc1ccccc1 | inactive: 16.1%
31 | O=C(OC1CN2CCC1CC2)c1cccc2[nH]cnc12 (centres undefined) | inactive: -2.62%
32 | CCN(CC)C(=S)SC(NC=O)C(Cl)(Cl)Cl (centres undefined) | inactive: -12.6%
33 | COC(=O)C1(C)COP(=O)(N2CCCCCC2)OC1 (centres undefined) | inactive: -2.91%
34 | CC(C)c1ccc(OP(=O)(Nc2ccccn2)Oc2ccccc2F)cc1 (centres undefined) | inactive: 12.2%
35 | Nc1ccccc1[As](=O)(O)c1ccccc1 | inactive: -17.9%
36 | O=C(O)COc1ccc([As](=O)(O)O)cc1[N+](=O)[O-] | inactive: -15.8%
37 | O=P(Nc1nccs1)(Oc1ccccc1)Oc1ccccc1 | inactive: 7.6%
38 | O=P(Nc1nccs1)(c1ccccc1)c1nc2ccccc2s1 (centres undefined) | inactive: 7.16%
39 | CCOP1(=S)c2c(C)nn(CCC#N)c2N=C(c2ccccc2F)N1C (centres undefined) | inactive: -1.94%
40 | CS(=O)(=O)c1cc([N+](=O)[O-])c2no[n+]([O-])c2c1 | inactive: 4.42%
41 | CCOP1(=S)c2c(C)nn(CCC#N)c2N=C(c2ccc(F)cc2)N1C (centres undefined) | inactive: -0.687%
42 | CN(C(=O)Cc1ccccc1)[C@@H]1CC[C@]2(CCCO2)C[C@H]1N1CCCC1 | inactive: -5.44%
43 | N#CCCN(C(=O)COC(=O)C(O)(c1ccccc1)c1ccccc1)c1ccc(F)cc1 | inactive: 3.26%
44 | CN(C(=O)Cc1ccc(Cl)c(Cl)c1)[C@H]1CC[C@@]2(CCCO2)C[C@@H]1N1CCCC1 | inactive: -1.35%
45 | CN(C)C(=O)c1cc([N+](=O)[O-])cc2c1-c1c(cc([N+](=O)[O-])cc1[N+](=O)[O-])C2=O | inactive: -9.11%
46 | O=[As](O)(c1cccc(O)c1)c1cccc(O)c1 | inactive: 0.523%
47 | O=C(OC1CN2CCC1CC2)c1ccc(Cl)cc1 (centres undefined) | inactive: 8.29%
48 | CS(=O)(=O)c1ccc(Cl)c(NC(=O)COC(=O)C(O)(c2ccccc2)c2ccccc2)c1 | inactive: 21.4%
49 | O=[As](O)(O)c1cccnc1 | inactive: 7.76%

— PubChem BioAssay AID504621 (Broad Institute, 2011)
